Measured values reported in PubChem BioAssay AID720580 (National Center for Advancing Translational Sciences (NCATS), 2013).
The list shows a part of the results, in another mix than the full data. Records with an inconclusive call do not appear. Calls of active or inactive are those of the source. Calls follow the shape of the full dose curve; tested in A549 cells.

experiment: qHTS for Stage-Specific Inhibitors of Vaccinia Orthopoxvirus: Venus Reporter Primary qHTS; conditions: Vaccinia virus Venus reporter expression, fluorescence; series mostly up to 36.5 µM; activity change, negative = inhibition: at the top concentration; also: nearly all actives have a fitted effect of over 30% in size
% is scaled to controls: 0 for no effect and ±100 for the full control effect; potency is read from the fitted curve at half-maximal effect.

SMILES	activity change, negative = inhibition	Potency
O=P(/N=c1/nc(-c2ccccc2)n(-c2ccccc2)s1)(Nc1ccccc1)Nc1ccccc1	inactive: -22%	–
CCOC(=O)c1ccc(NP(C)(=O)Oc2ccc(Cl)cc2)cc1 (configuration not stated)	inactive: -9.69%	–
Cc1cc(C=O)ccc1N(CCCl)CCCl	inactive: 0.853%	–
O=P1(N(CCCl)CCCl)OCCCS1 (configuration not stated)	inactive: 1.51%	–
COC(=O)C1(C)COP(=O)(Nc2ccccc2)OC1 (configuration not stated)	inactive: -11.2%	–
O=C(O)CNc1ccc([As](=O)(O)O)cc1	inactive: 0.918%	–
OCCSCCO	inactive: -7.09%	–
O=C(OCCCN1CCCC1)C(O)(c1ccccc1)C1CCCCC1 (configuration not stated)	inactive: -15.2%	–
COc1ccccc1OP(C)(=O)Nc1c(C)n(C)n(-c2ccccc2)c1=O (configuration not stated)	inactive: -5.06%	–
O=[N+]([O-])c1cccc2n[nH]nc12	inactive: 0.929%	–
CC(=O)N1C2C3N(C(C)=O)C1C1N(C(C)=O)C(C(N1C(C)=O)N3C(C)=O)N2C(C)=O	inactive: -15.4%	–
CCc1nc2c(n1)c1c(non1O)c1c2no[n+]1[O-]	inactive: -15.1%	–
CCc1ccc(OP(C)(=O)Nc2cccnc2)cc1 (configuration not stated)	inactive: -3.71%	–
CP(=O)(Oc1ccccc1)N1CCOC1=O (configuration not stated)	inactive: -3.34%	–
Cc1ccc(NP(=O)(Oc2ccccc2)Oc2ccccc2)nc1	inactive: -8.86%	–
COc1ccc(OP(C)(=O)Nc2ccc(Br)cc2)cc1 (configuration not stated)	inactive: -13.9%	–
COc1ccc(C2=NCC(CBr)S2)cc1 (configuration not stated)	inactive: -11.7%	–
CN(C)C(=O)OCCc1n(C)cc[n+]1C	inactive: -2.01%	–
CC(C)=N/N=C(\N)N[N+](=O)[O-]	inactive: -7.83%	–
COc1cc([N+](=O)[O-])c([N+](=O)[O-])cc1OC	inactive: -5.53%	–
CC(C)c1nc(Nc2ccccc2)n(P(=O)(N(C)C)N(C)C)n1	inactive: -13.8%	–

SMILES	activity change, negative = inhibition	Potency
c1cc(-c2nn[nH]n2)ccc1-c1nn[nH]n1	inactive: -5.22%	–
CC1CCN(C(=O)Oc2c(Cl)cc(Cl)c3cccnc23)CC1	inactive: -21.8%	–
CC(=O)C1=CCCC2CCC1N2 (configuration not stated)	inactive: -8.94%	–
Nc1ccc([As](=O)(O)c2ccc(N)cc2)cc1	inactive: -2.81%	–
COc1ccccc1OP(C)(=O)Nc1ccccc1Br (configuration not stated)	inactive: -5.43%	–
CP(=O)(Nc1ccc(Cl)cc1)Oc1ccc(F)cc1 (configuration not stated)	inactive: -17.6%	–
CCN(/C(=N/P(=O)(N1CCOCC1)N1CCOCC1)N1CCOCC1)c1ccc(OC)cc1	inactive: 1.73%	–
CCOP(C)(=S)SCC(=O)NC(C)(CC)C(=O)O (configuration not stated)	inactive: -5.31%	–
c1nnnn1CCn1cnnn1	inactive: -0.434%	–
CC(C)C(=O)NC(Sc1ccccc1)C(Cl)(Cl)Cl (configuration not stated)	inactive: -1.58%	–
O=P(Nc1nccs1)(c1ccccc1)c1ccccc1	inactive: -16.1%	–
CCN(CCCl)Cc1ccccc1C	inactive: 0%	–
Cc1ccccc1NP(C)(=O)Nc1ccccc1C	inactive: -7.79%	–
COc1cccc([N+](=O)[O-])c1[N+](=O)[O-]	inactive: -15.7%	–
O=[N+]([O-])c1cc([N+](=O)[O-])c(C(F)(F)F)c([N+](=O)[O-])c1O	inactive: -4.82%	–
CP(=O)(Nc1ccc2c(c1)OCCO2)Oc1ccccc1 (configuration not stated)	inactive: -12.4%	–
C[C@H]1OP(=O)(Oc2ccccc2)[C@H](O)[C@H](O)[C@H]1N=[N+]=[N-] (some centres not stated)	inactive: -3.57%	–
CN(C)CCOC(=O)C(O)(c1ccccc1)C1CCCCC1 (configuration not stated)	inactive: -9.41%	–
O=P(Nc1nc2ccccc2s1)(c1ccccc1)c1ccccc1	inactive: -2.09%	–
COc1ccc(NP(C)(=O)Oc2ccccc2OC)cc1 (configuration not stated)	inactive: -4.27%	–
CC1=CC2OC3CC4OC(=O)C=CC=CC(=O)OCCC(C)C(O)C(=O)OCC2(CC1O)C4(C)C31CO1 (configuration not stated)	–	active: 2820 nM

SMILES	activity change, negative = inhibition	Potency
COc1ccc(N)c([N+](=O)[O-])c1[N+](=O)[O-]	inactive: -8.41%	–
O=P(Nc1ccccn1)(c1ccc(Br)cc1)c1ccc(Br)cc1	inactive: -0.0615%	–
CN(C)C1(CNC(=O)c2ccc(Cl)c(S(N)(=O)=O)c2)CCCCC1	inactive: -6.72%	–
Nc1ccc([As](=O)(O)c2ccc([N+](=O)[O-])cc2)cc1	inactive: -8.18%	–
C(Cc1nn[nH]n1)Cc1nn[nH]n1	inactive: -8.23%	–
O=[N+]([O-])c1ccc(OP2(=O)COCCO2)cc1 (configuration not stated)	inactive: 7.35%	–
O=[N+]([O-])c1ncn(CCn2cnc([N+](=O)[O-])n2)n1	inactive: -2.5%	–
Cc1cc(-c2cccc3ccccc23)c(C)cn1.O=[N+]([O-])c1cc([N+](=O)[O-])c(O)c([N+](=O)[O-])c1	inactive: -24.1%	–
CCOC(=O)c1ccc(NP(C)(=O)Oc2ccc(F)cc2)cc1 (configuration not stated)	inactive: -0.696%	–
O=P1(N(CCCl)CCCl)OCCC2CCCCN21 (configuration not stated)	inactive: -3.37%	–
COc1ccc(OP(C)(=O)Nc2ccc(SC(F)(F)F)cc2)cc1 (configuration not stated)	inactive: -15.8%	–
CCNC(=S)/N=C(\N)N[N+](=O)[O-]	inactive: -2.64%	–
O=C(NC1CCS(=O)(=O)C1)NP(=S)(Oc1ccccc1)Oc1ccccc1 (configuration not stated)	inactive: -5.71%	–
Cc1ccc(NP(=O)(Oc2cccc(C)c2)Oc2cccc(C)c2)nc1	inactive: 3.48%	–
O=[N+]([O-])c1cc([N+](=O)[O-])c2nc[nH]c2c1	inactive: -14.4%	–
c1ccc(-c2nn[nH]n2)c(-c2nn[nH]n2)c1	inactive: -7.14%	–
CP(=O)(Nc1ccccc1)Oc1ccc(F)cc1 (configuration not stated)	inactive: -9.73%	–
CN(C)C(=O)Oc1noc2ccccc12	inactive: 8.22% [at 7.34 µM]	–
O=c1c2cc([N+](=O)[O-])ccc2[nH]c2c([N+](=O)[O-])cc([N+](=O)[O-])cc12	inactive: -6.98%	–
Cc1ccccc1OP(=O)(Nc1ccccn1)Oc1ccccc1C	inactive: -11.7%	–
CC(=O)NC(SC(=S)N(CC(C)C)CC(C)C)C(Cl)(Cl)Cl (configuration not stated)	inactive: -11.8%	–

SMILES	activity change, negative = inhibition	Potency
Cc1ccc(OP(=O)(Nc2ccccn2)Oc2ccc(C)cc2)cc1	inactive: -2.44%	–
Cc1c([N+](=O)[O-])cc([N+](=O)[O-])c(Br)c1[N+](=O)[O-]	inactive: -2.28%	–
COC(=O)c1cc2c(s1)N=C(c1ccccc1)N(C)P2(=O)N1CCOCC1 (configuration not stated)	inactive: -9.77%	–
CCC(=O)N1C2C3N(C(=O)CC)C1C1N(C(=O)CC)C(C(N1C(=O)CC)N3C(=O)CC)N2C(=O)CC	inactive: -10.7%	–
O=C(OC1CN2CCC1CC2)c1ccccc1 (configuration not stated)	inactive: -6.52%	–
CP(=O)(Nc1ccccc1F)Oc1ccccc1 (configuration not stated)	inactive: -6.88%	–
CCc1cc(O)c([N+](=O)[O-])c(C)c1[N+](=O)[O-]	inactive: -15%	–
CC(C)c1ccc(OP(C)(=O)Nc2ccc(SC(F)(F)F)cc2)cc1 (configuration not stated)	inactive: -29.4%	–
CC(C)(C)C(=O)NC(Sc1ccccc1)C(Cl)(Cl)Cl (configuration not stated)	inactive: -9.23%	–
CCOc1ccc(C2=NCC(CBr)S2)cc1 (configuration not stated)	inactive: -6.28%	–
O=P1(Nc2nc3ccc(Cl)cc3s2)COc2ccccc2O1 (configuration not stated)	inactive: -8.61%	–
CC(=O)Nc1ccc([As](=O)(O)O)c(O)c1	inactive: 3.75%	–
COC(=O)C1(C)COP(=O)(NCc2ccccc2)OC1 (configuration not stated)	inactive: -9.69%	–
N#C/C(=C\c1ccc(N(CCBr)CCBr)cc1)C(N)=O	inactive: -29.8%	–
CC(=O)c1ccc(N2CC2c2ccncc2)cc1 (configuration not stated)	inactive: -10.2%	–
C[C@@H]1C=CCP(=O)(Oc2ccccc2)O1 (some centres not stated)	inactive: 1.15%	–
C[C@H]1OP(=O)(Oc2ccccc2)C[C@@H]2O[C@@H]21 (some centres not stated)	inactive: 2.61%	–
Cc1ccccc1CN(C)C(=O)COC(=O)C(O)(c1ccccc1)c1ccccc1	inactive: -25%	–
O=C(OCCN1CCN(CCOCc2ccccc2)CC1)C(O)(c1ccccc1)c1ccccc1	inactive: -14.4%	–
